Anti-infective test results gathered from many reports (values: NIAID ChemDB through PubChem).

All rows: tests in culture; species: Staphylococcus aureus; measure: MIC

Neighbouring rows are from separate reports.

smiles	strain	result
Nc1nc(-n2cc(C(=O)O)c(=O)c3cc(F)c(N4CC[C@H](N)C4)c(F)c32)c(F)cc1F	209P	0.05 µg/mL
Cc1cccnc1OC[C@H]1CN(c2ccc(C3=CCOCC3)c(F)c2)C(=O)O1	004 (methicillin quinolone-resistant)	4 µg/mL
CC(=O)NC[C@H]1CN(c2ccc(-c3ncon3)c(F)c2)C(=O)O1	UC9213 (methicillin-susceptible)	4 µg/mL
CNC(=O)CC1NC(=O)c2csc(n2)-c2ccc(-c3nc(C(=O)NCCC(=O)OC(C)(C)C)cs3)nc2-c2csc(n2)-c2csc(n2)C(C(O)c2ccccc2)NC(=O)CNC(=O)c2nc(sc2CSSC(C)=O)C(C(C)C)NC(=O)c2nc1sc2C	ATCC 33591 (methicillin-resistant)	1 µg/mL
Nc1nc(-n2cc(C(=O)O)c(=O)c3cc(F)c(N4CC(N)C4)c(F)c32)c(F)cc1F	209P	0.025 µg/mL
CC(=O)NC[C@H]1CN(c2ccc(OC3CCN(C(=O)COCc4cccnc4)CC3)c(F)c2)C(=O)O1	OC4172 methicillin-susceptible	16 µg/mL
CCC(N)CCNc1cc2c(cc1F)c(=O)c(C(=O)O)cn2C1CC1	ATCC 6538P	1.56 µg/mL
CC(=O)NC[C@H]1CN(c2ccc(-c3noc(C)n3)c(F)c2)C(=O)O1	UC6685 (methicillin-resistant)	8 µg/mL
CC[C@H]1OC(=O)C[C@@H](O)[C@H](C)[C@@H](O[C@@H]2O[C@H](C)[C@@H](O)[C@H](N(C)C)[C@H]2O)C(C=O)C[C@@H](C)C(=O)/C=C/C(C)=C/[C@@H]1COC(=O)Nc1ccc(F)c(F)c1	25923 (erythromycin-susceptible)	0.5 µg/mL
Cc1ccnc(OC[C@H]2CN(c3ccc(C4=CCOCC4)c(F)c3)C(=O)O2)c1	004 (methicillin quinolone-resistant)	1 µg/mL
CC(=O)NC[C@H]1CN(c2ccc(-c3ccn(CCC#N)n3)c(F)c2)C(=O)O1	UC6685 (methicillin-resistant)	4 µg/mL
O=C(C(O)Cn1cccn1)N1CC=C(c2c(F)cc(N3C[C@H](COc4ccon4)OC3=O)cc2F)CC1	122 (novobiocin-resistant)	1 µg/mL
CC(=O)NC[C@H]1CN(c2ccc(OC3CCN(C(C)=O)CC3)nc2)C(=O)O1	OC4172 methicillin-susceptible	>128 µg/mL
CC(=O)NC[C@H]1CN(c2ccc(-c3csc(C)c3)c(F)c2)C(=O)O1	UC6685 (methicillin-resistant)	2 µg/mL
CC[C@H]1OC(=O)C[C@@H](O)[C@H](C)[C@@H](O[C@@H]2O[C@H](C)[C@@H](O)[C@H](N(C)C)[C@H]2O)C(C=O)C[C@@H](C)C(=O)/C=C/C(C)=C/[C@@H]1COC(=O)NCc1ccccc1	25923 (erythromycin-susceptible)	0.5 µg/mL
COCCCNc1cc2c(cc1F)c(=O)c(C(=O)O)cn2C1CC1	ATCC 6538P	>100 µg/mL
CC[C@H]1OC(=O)[C@H](C)C(=O)[C@H](C)[C@@H](O[C@@H]2O[C@H](C)C[C@H](N(C)C)[C@H]2O)[C@@]2(C)C[C@@H](C)/C(=N\C(=O)OC)[C@H](C)C(OC/C(=C\C=C\c3ccccc3)CO2)[C@]1(C)O	27660 (erythromycin-resistant)	0.5 µg/mL
CCN1CCN(C)c2cc3c(=O)c(C(=O)O)cn(C4CC4)c3cc21	ATCC 6538P	>100 µg/mL
CNC(=O)CC1NC(=O)c2csc(n2)-c2ccc(-c3nc(C(=O)NCCC(=O)OC(C)(C)C)cs3)nc2-c2csc(n2)-c2csc(n2)C(C(O)c2ccccc2)NC(=O)CNC(=O)c2nc(sc2CSSC(=S)c2cnc[nH]2)C(C(C)C)NC(=O)c2nc1sc2C	ATCC 33591 (methicillin-resistant)	4 µg/mL
O=C(C(O)Sc1ccccn1)N1CC=C(c2c(F)cc(N3C[C@H](COc4ccon4)OC3=O)cc2F)CC1	122 (novobiocin-resistant)	1 µg/mL
Nc1nc(-n2cc(C(=O)O)c(=O)c3cc(F)c(N4CC(N)C4)c(Cl)c32)c(F)cc1F	209P	<0.013 µg/mL
Cc1c(N)c(F)cc2c(=O)c(C(=O)O)cn(-c3cc(N)c(F)cc3F)c12	209P	0.008 µg/mL
CC[C@H]1OC(=O)[C@H](C)C(=O)[C@H](C)[C@@H](O[C@@H]2O[C@H](C)C[C@H](N(C)C)[C@H]2O)[C@@]2(C)C[C@@H](C)C(=NC(C)=O)[C@H](C)C(OC/C(=C\C=C\c3ccc(OC)cc3)CO2)[C@]1(C)O	27660 (erythromycin-resistant)	0.5 µg/mL
Cc1c(NCCCO)c(F)cc2c(=O)c(C(=O)O)cn(-c3cc(N)c(F)cc3F)c12	W44 (methicillin-resistant)	0.5 µg/mL
CCN(CC)CCN(C)c1cc2c(cc1F)c(=O)c(C(=O)O)cn2C1CC1	ATCC 5278 (methicillin-resistant)	>100 µg/mL
CNC(=O)CC1NC(=O)c2csc(n2)-c2ccc(-c3nc(C(=O)NCCC(=O)OC(C)(C)C)cs3)nc2-c2csc(n2)-c2csc(n2)C(C(O)c2ccccc2)NC(=O)CNC(=O)c2nc(sc2CSSc2ncnc3nc[nH]c23)C(C(C)C)NC(=O)c2nc1sc2C	ATCC 33591 (methicillin-resistant)	0.5 µg/mL
O=C(C(O)Cn1cccc1)N1CC=C(c2ccc(N3C[C@H](COc4ccon4)OC3=O)cc2F)CC1	004 (methicillin quinolone-resistant)	2 µg/mL
CNC(=O)CC1NC(=O)c2csc(n2)-c2ccc(-c3nc(C(=O)NCCC(=O)OC(C)(C)C)cs3)nc2-c2csc(n2)-c2csc(n2)C(C(O)c2ccccc2)NC(=O)CNC(=O)c2nc(sc2CSSc2ccccn2)C(C(C)C)NC(=O)c2nc1sc2C	ATCC 33591 (methicillin-resistant)	0.06 µg/mL
CCC(=O)N=C1[C@H](C)C[C@@]2(C)OC/C(=C/C=C/c3ccccc3)COC([C@H]1C)[C@](C)(O)[C@@H](CC)OC(=O)[C@H](C)C(=O)[C@H](C)[C@H]2O[C@@H]1O[C@H](C)C[C@H](N(C)C)[C@H]1O	33591 (erythromycin methicillin-resistant)	>64 µg/mL
Cn1cc(C(=O)O)c(=O)c2cc3cc(F)c(N4CCN(Cc5ccc(F)cc5)CC4)cc3nc21	IP8203 (quinolone-sensitive)	0.5 µg/mL
CNC(=O)CC1NC(=O)c2csc(n2)-c2ccc(-c3nc(C(=O)NCCC(=O)OC(C)(C)C)cs3)nc2-c2csc(n2)-c2csc(n2)C(C(O)c2ccccc2)NC(=O)CNC(=O)c2nc(sc2CSSC(C)C(=O)NCC(=O)O)C(C(C)C)NC(=O)c2nc1sc2C	ATCC 33591 (methicillin-resistant)	>16 µg/mL
O=C(O)c1cn(C2CC2)c2cc(N3CCN(CCO)CC3)c(F)cc2c1=O	ATCC 5278 (methicillin-resistant)	1.56 µg/mL
CC[C@H]1OC(=O)[C@H](C)C(=O)[C@H](C)[C@@H](O[C@@H]2O[C@H](C)C[C@H](N(C)C)[C@H]2O)[C@@]2(C)C[C@@H](C)C(=O)[C@H](C)C(OC/C=C/CO2)[C@]1(C)O	29213 (erythromycin-susceptible)	2 µg/mL
CC[C@H]1OC(=O)C[C@@H](O)[C@H](C)[C@@H](O[C@@H]2O[C@H](C)[C@@H](O)[C@H](N(C)C)[C@H]2O)C(C=O)C[C@@H](C)C(=O)/C=C/C(C)=C/[C@@H]1COC(=O)Nc1ccc(F)cc1	25923 (erythromycin-susceptible)	0.5 µg/mL
Cc1c(NC2CC2)c(F)cc2c(=O)c(C(=O)O)cn(-c3cc(N)c(F)cc3F)c12	W200 (methicillin-resistant)	0.015 µg/mL
CC[C@H]1OC(=O)[C@H](C)C(=O)[C@H](C)[C@@H](O[C@@H]2O[C@H](C)C[C@H](N(C)C)[C@H]2O)[C@@]2(C)C[C@@H](C)C(=NC(C)=O)[C@H](C)C(OC/C(=C\C=C\c3ccc(F)cc3)CO2)[C@]1(C)O	33591 (erythromycin methicillin-resistant)	16 µg/mL
CNC(=O)CC1NC(=O)c2csc(n2)-c2ccc(-c3nc(C(=O)NCCC(=O)OC(C)(C)C)cs3)nc2-c2csc(n2)-c2csc(n2)C(C(O)c2ccccc2)NC(=O)CNC(=O)c2nc(sc2CSSc2nnc(C)s2)C(C(C)C)NC(=O)c2nc1sc2C	ATCC 33591 (methicillin-resistant)	0.25 µg/mL
CC[C@H]1OC(=O)C[C@@H](O)[C@H](C)[C@@H](O[C@@H]2O[C@H](C)[C@@H](O)[C@H](N(C)C)[C@H]2O)C(C=O)C[C@@H](C)C(=O)/C=C/C(C)=C/[C@@H]1COC(=O)Nc1cc(F)cc(F)c1	25923 (erythromycin-susceptible)	0.5 µg/mL
CC(=O)NC[C@H]1CN(c2ccc(OC3CCN(C(=O)c4ccco4)CC3)c(F)c2)C(=O)O1	OC4172 methicillin-susceptible	32 µg/mL
CC(O)CNc1cc2c(cc1F)c(=O)c(C(=O)O)cn2C1CC1	ATCC 6538P	>100 µg/mL
CC[C@H]1OC(=O)[C@H](C)C(=O)[C@H](C)[C@@H](O[C@@H]2O[C@H](C)C[C@H](N(C)C)[C@H]2O)[C@@]2(C)C[C@@H](C)C(=NC(C)=O)[C@H](C)C(OC/C(=C\C=C\c3cccc([N+](=O)[O-])c3)CO2)[C@]1(C)O	33591 (erythromycin methicillin-resistant)	64 µg/mL
CNC(=O)CC1NC(=O)c2csc(n2)-c2ccc(-c3nc(C(=O)NCCC(=O)O)cs3)nc2-c2csc(n2)-c2csc(n2)C(C(O)c2ccccc2)NC(=O)CNC(=O)c2nc(sc2CO)C(C(C)C)NC(=O)c2nc1sc2C	ATCC 33591 (methicillin-resistant)	1 µg/mL
Nc1nc(-n2cc(C(=O)O)c(=O)c3cc(F)c(N4CC(O)C4)c(Br)c32)c(F)cc1F	209P	0.39 µg/mL
CC(=O)NC[C@H]1CN(c2ccc(-c3cncs3)c(F)c2)C(=O)O1	UC9213 (methicillin-susceptible)	0.5 µg/mL
CC[C@H]1OC(=O)[C@H](C)C(=O)[C@H](C)[C@@H](O[C@@H]2O[C@H](C)C[C@H](N(C)C)[C@H]2O)[C@@]2(C)C[C@@H](C)C(=NC(C)=O)[C@H](C)C(OC/C(=C\c3cnc4ccccc4c3)CO2)[C@]1(C)O	27660 (erythromycin-resistant)	0.5 µg/mL
O=C1O[C@@H](COc2ccncc2)CN1c1ccc(C2=CCOCC2)c(F)c1	004 (methicillin quinolone-resistant)	8 µg/mL
Cn1cc(C(=O)O)c(=O)c2cc3cc(F)c(N4CCN(c5ccc(F)cc5)CC4)cc3nc21	IP8203 (quinolone-sensitive)	0.25 µg/mL
CC(=O)NCC(=O)N1CCC(Oc2ccc(N3C[C@H](CNC(C)=O)OC3=O)cc2F)CC1	OC2878 methicillin-resistant	16 µg/mL
CNC(=O)CC1NC(=O)c2csc(n2)-c2ccc(-c3nc(C(=O)NCCCCCC(=O)O)cs3)nc2-c2csc(n2)-c2csc(n2)C(C(O)c2ccccc2)NC(=O)CNC(=O)c2nc(sc2CSc2ccc(C(=O)O)cn2)C(C(C)C)NC(=O)c2nc1sc2C	ATCC 33591 (methicillin-resistant)	0.5 µg/mL
CC(=O)NC[C@H]1CN(c2ccc(OC3CCN(C(=O)CO)CC3)c(F)c2)C(=O)O1	OC2878 methicillin-resistant	4 µg/mL
O=C1O[C@@H](COc2ncccn2)CN1c1ccc(C2=CCOCC2)c(F)c1	004 (methicillin quinolone-resistant)	8 µg/mL
CNC(=O)CC1NC(=O)c2csc(n2)-c2ccc(-c3nc(C(=O)NCCCC(=O)O)cs3)nc2-c2csc(n2)-c2csc(n2)C(C(O)c2ccccc2)NC(=O)CNC(=O)c2nc(sc2CO)C(C(C)C)NC(=O)c2nc1sc2C	ATCC 33591 (methicillin-resistant)	0.5 µg/mL

Repeating the final 3 entries:

{"smiles": "CC(=O)NC[C@H]1CN(c2ccc(OC3CCN(C(=O)CO)CC3)c(F)c2)C(=O)O1", "strain": "OC2878 methicillin-resistant", "result": "4 µg/mL"}
{"smiles": "O=C1O[C@@H](COc2ncccn2)CN1c1ccc(C2=CCOCC2)c(F)c1", "strain": "004 (methicillin quinolone-resistant)", "result": "8 µg/mL"}
{"smiles": "CNC(=O)CC1NC(=O)c2csc(n2)-c2ccc(-c3nc(C(=O)NCCCC(=O)O)cs3)nc2-c2csc(n2)-c2csc(n2)C(C(O)c2ccccc2)NC(=O)CNC(=O)c2nc(sc2CO)C(C(C)C)NC(=O)c2nc1sc2C", "strain": "ATCC 33591 (methicillin-resistant)", "result": "0.5 µg/mL"}